PubChem BioAssay AID624099 – ICCB-Longwood – 2012
Shown is a random part of about 21,000 deposited reagents. 497 of them (2.4%) count as active. 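Higher z means weaker E2 silencing; only reporter increases were scored, and knock-downs that hurt cell survival may mask genuine repressor factors.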 A number with no mark means an inactive call. The numbers tell different reagents against one gene apart.

Purpose: 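Knock-downs relieving repression by E2 of an HPV18 LCR luciferase reporter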 (primary screen)
Cells: human C33A cervical carcinoma cells (HPV-negative) stably expressing BPV1 E2 and an HPV18 LCR luciferase reporter
Reagent: siRNA pool against human genes, 40 nM
Timing: 72 h
Measured: 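HPV18 LCR reporter light per well, converted to plate-wise z-scores that exclude control wells, and averaged over triplicate plates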
Reading the numbers: mean z-score and z-score: higher = stronger reporter signal, weaker E2 silencing
Rule for the call: 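Mean z ≥ 2 together with z ≥ 2 in two or more of the three replicates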

GSPT2 (G1 to S phase transition 2) → mean z-score: -1.03; z-score, replicate A: -1.11; z-score, replicate B: -1.37; z-score, replicate C: -0.61
OR2S2 (olfactory receptor family 2 subfamily S member 2) → mean z-score: 0.29; z-score, replicate A: 0.33; z-score, replicate B: 0.52; z-score, replicate C: 0.02
LOC388589 (retired record) → mean z-score: 0.16; z-score, replicate A: 0.26; z-score, replicate B: 0.23; z-score, replicate C: -0.02
ZFP41 (ZFP41 zinc finger protein) → mean z-score: -0.43; z-score, replicate A: -0.35; z-score, replicate B: -0.56; z-score, replicate C: -0.39
TFB2M (transcription factor B2, mitochondrial) → mean z-score: -1.54; z-score, replicate A: -1.78; z-score, replicate B: -1.42; z-score, replicate C: -1.43
CAPN8 (calpain 8) → mean z-score: -0.98; z-score, replicate A: -0.55; z-score, replicate B: -1.27; z-score, replicate C: -1.12
MPV17L2 (MPV17 mitochondrial inner membrane protein like 2) → mean z-score: -1.15; z-score, replicate A: -1.53; z-score, replicate B: -0.9; z-score, replicate C: -1.02
C19orf84 (chromosome 19 open reading frame 84) → mean z-score: 0.1; z-score, replicate A: -0.67; z-score, replicate B: 0.96; z-score, replicate C: 0.02
MANSC1 (MANSC domain containing 1) → mean z-score: 0.44; z-score, replicate A: 0.24; z-score, replicate B: 0.56; z-score, replicate C: 0.51
PHETA1 (PH domain containing endocytic trafficking adaptor 1) → mean z-score: -0.51; z-score, replicate A: -0.35; z-score, replicate B: -0.85; z-score, replicate C: -0.34
LARS2 (leucyl-tRNA synthetase 2, mitochondrial) → mean z-score: 0.71; z-score, replicate A: 0.93; z-score, replicate B: 0.73; z-score, replicate C: 0.47
SEMA3E (semaphorin 3E) → mean z-score: 0.92; z-score, replicate A: 0.92; z-score, replicate B: 0.75; z-score, replicate C: 1.08
NFKBIZ (NFKB inhibitor zeta) → mean z-score: -0.26; z-score, replicate A: -0.18; z-score, replicate B: -0.38; z-score, replicate C: -0.24
CDCA7L (cell division cycle associated 7 like) → mean z-score: -0.07; z-score, replicate A: 0.03; z-score, replicate B: -0.09; z-score, replicate C: -0.16
LOC400320 (retired record) → mean z-score: -0.3; z-score, replicate A: -0.11; z-score, replicate B: -0.58; z-score, replicate C: -0.22
ATL3 (atlastin GTPase 3) #1 → mean z-score: 1.08; z-score, replicate A: 0.82; z-score, replicate B: 1.14; z-score, replicate C: 1.28
ATL3 (atlastin GTPase 3) #2 → mean z-score: 0.24; z-score, replicate A: 0.29; z-score, replicate B: 0.22; z-score, replicate C: 0.2
SCARA3 (scavenger receptor class A member 3) → mean z-score: -0.1; z-score, replicate A: -0.1; z-score, replicate B: -0.28; z-score, replicate C: 0.1
OGT (O-linked N-acetylglucosamine (GlcNAc) transferase) → mean z-score: -0.01; z-score, replicate A: -0.2; z-score, replicate B: 0.12; z-score, replicate C: 0.07
MDM2 (MDM2 proto-oncogene) → mean z-score: -0.68; z-score, replicate A: -0.72; z-score, replicate B: -0.83; z-score, replicate C: -0.47
EIF4B (eukaryotic translation initiation factor 4B) → mean z-score: 0.72; z-score, replicate A: 0.7; z-score, replicate B: 0.46; z-score, replicate C: 1
